In publication PMC13379085 (PLOS Neglected Tropical Diseases, 2026):

Columns and labels:
[1] = test system: Intracellular L. donovani amastigotes; experiment: Luminescence-based assay of intracellular L. donovani burden in THP-1 macrophages; assay type: cell-based, Leishmania donovani; settings: host-directed effect vs cytotoxicity in THP-1
Procedure: Luminescent strains, L. donovani LV82 expressing firefly luciferase (a kind gift from Dr. Abhay Satoskar, Ohio State University) and L. mexicana (NR-51210, ATCC) expressing renilla luciferase were used to evaluate the effect of the compounds in intracellular and extracellular conditions. Wild-type L. donovani LV82 (ATCC) were used for Giemsa staining based experiments. All parasites were cultured at 25°C and 5% CO2 in M199 media (Corning) supplemented with 10% FBS, 1% Penicillin/Streptomycin, and Hemin (0.01 mg/mL), and used in experiments up to passage 15.
THP-1 cells were seeded in a 96 well plate (25,000 cells/well) overnight then differentiated with 150 nM phorbol 12-myristate 13-acetate (PMA) over 72 hours (S1 Fig). […] Briefly, promastigotes of a known cell density were resuspended in RPMI media (with 10% FBS, 1% P/S and 0.05 mM β-mercaptoethanol) and incubated with adhered THP-1 cells over 18 hours. After infection, cells were washed three times with fresh media to remove extracellular promastigotes.
Infected macrophages were then treated with compounds solubilized in DMSO ranging from 0.1-10 µM in concentrations. After 72 hours of treatment, the viability of the amastigotes within macrophages was determined using Promega firefly luminescence assay (Cat E1500) or Pierce Renilla luciferase assay (Cat 16166) for L. donovani and L. mexicana strains, respectively. Briefly, media was removed, and cells were lysed with the assay lysis buffer. The luciferase substrate was then incubated with the lysed cells for 10 min at room temperature and luminescence of live Leishmania was measured in a white opaque 96 well plate using a Biotek plate reader.

[2] = test system: Intracellular L. donovani amastigotes; experiment: Image-based Giemsa staining of intracellular L. donovani in bone marrow derived macrophages; assay type: cell-based, Leishmania donovani; settings: 72 hr LC50 THP-1 / Giemsa IC50 L. donovani
Procedure: (§1) Bone marrow derived macrophages (BMDMs) were isolated from BALB/c mice and cultured as previously described. […] Completely differentiated BMDMs are obtained after 7 days of culture with media change every 2 days. Harvested cells are seeded onto 10 mm glass cover slips at 5 x 10^5 cells/ well of a 24 well plate in DMEM media (without LCM) and allowed to adhere overnight. BMDM cells are then infected overnight with LV82 L. donovani or L. mexicana (NR-51210) at a multiplicity of infection of 10. After infection, cells were washed three times with fresh media to remove extracellular promastigotes and treated with compounds for a 72-hour incubation. BMDM cells were then washed with phosphate buffered saline, fixed with ice-cold methanol, and stained with Giemsa (5% v/v in water). The cover slips with stained cells are mounted onto glass slides and imaged on EVOS XL (100X, Thermo Fisher Scientific). Leishmania amastigotes per 100 macrophages were determined in a blinded manner.

[3] = test system: Intracellular L. mexicana amastigotes; assay type: cell-based, Leishmania mexicana; settings: 72 hr LC50 THP-1 / Giemsa IC50 L. mexicana
Procedure: as §1

Row | Compound | Selectivity 24h LC50/ Lum IC50 [1] | Therapeutic Index LC50/ IC50 (L. donovani) [2] | L. mexicana Therapeutic Index LC50/ IC50 [3]
1 | Oc1ccccc1CN1CCC(Nc2ccc(-n3nc(C(F)(F)F)cc3-c3ccc(-c4ccc(C(F)(F)F)cc4)cc3)cc2)C1 (centres unmarked) [Compound 91] | >36.1 | 22 | 
2 | N#Cc1ccc(CNCC(=O)Nc2ccc(-n3nc(C(F)(F)F)cc3C3CCCCC3)cc2)cc1 [Compound 354] |  |  | 6
3 | FC(F)(F)c1ccc(-c2ccc(-c3cc(C(F)(F)F)nn3-c3ccc(NC4CCNC4)cc3)cc2)cc1 (racemic) [Compound 25] | 43.8 | 2 | 
4 | Oc1ccc(CNC2CCN(c3ccc(-n4nc(C(F)(F)F)cc4C4CCCCC4)cc3)CC2)cc1 [Compound 319] | 8.1 | 2 | 
5 | NC1CCN(c2ccc(-n3nncc3-c3ccc(C(F)(F)F)cc3)cc2)C1 (centres unmarked) [Compound 134] |  |  | 40
6 | CC(C)(C)C#Cc1ccc(-c2cc(C(F)(F)F)nn2-c2ccc(N3CCNCC3)cc2)cc1 [Compound 44] | 8.1 | 14 | 
7 | Nc1ccc(CNC2CCN(c3ccc(-n4nc(C(F)(F)F)cc4-c4ccc(-c5ccc(C(F)(F)F)cc5)cc4)cc3)C2)cc1 (centres unmarked) [Compound 23] | 14.8 | 8 | 
8 | NCC(=O)Nc1ccc(-n2ccnc2-c2ccc(-c3ccc(C(F)(F)F)cc3)cc2)cc1 [Compound 158] | 81.0 | 29 | 
9 | NCC(=O)Nc1ccc(-n2cc(C(F)(F)F)nc2-c2ccc(-c3ccccc3)cc2)cc1 [Compound 50] | 16.0 | 5 | 
10 | O=C(CNCc1cccc(F)c1)Nc1ccc(-n2cc(C(F)(F)F)nc2-c2ccc(-c3ccc(C(F)(F)F)cc3)cc2)cc1 [Compound 197] |  |  | >176
11 | N#Cc1cccc(CN2CCC(Nc3ccc(-n4nc(C(F)(F)F)cc4-c4ccc(-c5ccc(C(F)(F)F)cc5)cc4)cc3)C2)c1 (centres unmarked) [Compound 53] |  |  | >428
12 | O=C(Nc1ccc(-n2cc(C(F)(F)F)nc2-c2ccc(-c3ccccc3)cc2)cc1)C1CCN(Cc2ccccc2)C1 (centres unmarked) [Compound 86] | 16.0 | 14 | 
